# Patent publication US11598051B2, “Method for manufacturing a fibrous web” (Kemira Oyj, priority 2017, dated 2023)
# Test: Example 2 laboratory broke storage test: pH and redox measurements
# [1] = broke, 50 mg/l as active agent, +45° C., closed, after 3 days storage time
compound,measurement,setting,value
O=CCCCC=O [glutaraldehyde],development of anaerobic fermentative conditions,"50 mg/l, 3 days of storage",effectively prevented development of anaerobic fermentative conditions
same,pH,[1],7.4
same,redox,[1],145 mV
